Test results: the supplement of paper PMC9931576
Human monoclonal antibodies against the spike receptor-binding domain (heavy:light variable regions). IC50 against pseudoviruses bearing the spike of naturally observed variants; lower = stronger; >10 µg/ml means not reached at the top dose. No active / inactive call. The stated detection limit is 0.0005 µg/ml; values near or below 0.001 µg/ml lie at the floor of the assay.

B1: BD55-6703 (protein)
chain 1: EVQLVESGGGLVQPGGSLRLSCAASGFTFSRHPMHWVRQAPGKGLEYVSAITSNGGGTFYANSVKGRFTISRDNSKNTLYLQMGSLTTEDMALYYCAREVAGNQLPYLVFDIWGRGTMVIVSS
chain 2: DIQMTQSPSSLSAFIGDRVTITCRASQTIGTYLNWYQHKPGEAPKLLIYGASNLQSGVPSRFSGSGSGTAFTLTISSLRVEDLATYYCQQSYTTPQYTFGQGTKLEIK
B2: BD55-6690 (protein)
chain 1: EVQLVQSGAEVKKPGESLKISCQGSGYDFTSYWIGWVRQMPGKGLEWMGIIYPGDSDSKYNPSFQGQVTISADKSVSTAYLQWSSLKASDTGIYYCVRHISGGRHCSGGSCYTPPYNAMDIWGLGTTVTVSS
chain 2: YVLTQPPSVSLAPGGTARIPCGGSGIGSKSVHWYQQRPGQAPVLVVHDDTARPSGIPERFSGSNSGNTATLTITRVEAGDEADYYCQVWDNTSDHPVFGGGTKLTVL
B3: BD55-6720 (protein)
chain 1: QLQQSGPGLVKPSQTLSLTCAISGDTVSSDSAAWIWIRQSPSRGLQWLGRTYFTSKWHNEYAESVKSRMTIRPDTSRNQFSLQLTSVTHDDTAIYFCARAQRETTCNGARCYSYYYHGMDVWGQGTTVTVSS
chain 2: EIVLTQSPGTLSMSPGEEATLSCRASQSVTSTYLAWYQQKHGQAPRLLIYGASSRAPGIPDRFSGSGSGTEFTLTISRLEPEDFAVYHCHHDGSTPPAFGGGTKVEIK
B4: BD55-6702 (protein)
chain 1: QLQLQESGSGLVKPSQTLSLTCAVSGGSISSGVYSWSWLRQPPGKGLEWIGYIYHSGSTYYNASLRSRVTISVDRSENQFSLRLNSVTAADTAVYFCARESSTSGFYYFDYWGQGTLVTVSS
chain 2: DIQMTQTPSSLSASVGDRVTITCRASQSITMYLNWYQQKSGKAPKFLIYAASNLQSGVPSRFSGSGSGTDFTLTISSLQPEDFATYFCQQSYTTPYTFGQGTKLEIK
B5: BD55-6726 (protein)
chain 1: QMQLVQSGPEVKRPGTSVKVSCEASGFTFSSSAILWVRQPRGQRLESIGWMAVGGADRNYASRFQERVTLTTDMSTSTAYMELSGLRSEDTAVYYCAAMVRGGWWYFDLWGRGTLVTVSS
chain 2: EIVLRQSPATVSLSPGERATLSCRASQSVHNYLAWFQQKPGQAPRLLIYDASTRATDIPAKFSGSGSGTDFTLTIGNLEPEDFAVYYCQQRSDWPWTFGQGTKVEIK
B6: BD55-6700 (protein)
chain 1: QVYLVQSGGEVKQPGASVTVSCKTSGYTFTNYGINWLRQAPGQGLEWMGWISGYNGNTNYAQKFQDRVTLTTDTSTGTAYMDLKSLRSDDTATYYCARDANHDGTGHHYRGGPFNWFDPWGQGTLVTVSS
chain 2: QSVLTQPPSASGTPGQRVTISCTGSYSNIGSNYVNWYQQLPGTAPKLLIYMNDQRPSGVPDRFSGSKSGASASLAISGLRSEDEAHYYCTAWDDSPSGPWVFGGGTKLTVL
B7: BD55-6708 (protein)
chain 1: QVQLVESGGGVVQPGRSLRLSCAASGFTFSAYDIHWVRQAPGKGLEWVAVISYDGGIKFYADSVKGRFTISRDNSKNMLYLQMNTLRAEDTAMYYCAKEQTYDTLTGLYYFDQWGQGTLVTVSS
chain 2: DIQMTQSPSSLSASVGDSVTITCRASQSISRHLNWYQQKPGKAPKLLIYAASSLQSGVPSRFSGSGSGTDFTLTVSSLQPEDFATYYCQQSFSTPQITFGPGTKVDIK
B8: BD55-6696 (protein)
chain 1: EVQLVQSGAELKKPGESLRISCQASGYRFTNFWITWVRQTPGKGLEWMGRMDPTDSYAKYSPSFQGHVTFSADKSISTAYLQWSSLKASDTGTYYCARQLCGGDCPIDSWGPGTLVTVSS
chain 2: DIQMTQSPSSVSASVGDRVTITCRASQGIRDYLAWFQQRPGEAPKSLIYTASSLHSGVPFRFSGSGSGTDFTLTISSLQPEDFATYYCQQYDTYPPTFGPGTKVEIK
B9: BD55-6715 (protein)
chain 1: QMQLVQSGPEVKKPGTSVKVSCQASGFTFTSSAVQWVRQARGQRLEWIGWIVVGSGNANYAQKFQGRVAITRDTSTSTASMELSSLRSDDTAVYYCAATDFYQDVMTGHYHLDYYGTDVWGQGTTVTVSS
chain 2: QSVLTQPPSASATPGQGITISCSGSSSNIGTNTVNWYRQFPGTAPKLLLYGHNQRPSGVPDRFSGSKSGTSASLAISGLQSEDEADYYCAAWDDTLNAYVFGTGTTVTVL
B10: BD55-6701 (protein)
chain 1: QVQLVQSGAEVKKPGSSVKVSCKASGGTFHAISWVRQAPGQGLEWMGRIITMFGTTNYAQKFQGRVTITADNMELNNLTSDDTAVYYCARDLRGADYDLLTGYYPGGWFDPWGRGTLVTVSS
chain 2: YVLTQSPSVSVAPGKTATISCGGDNIGSNSVQWYQQKPGQAPVLVIYYDNNRPSGIPERFSGSNSGNTATLTISRVEAGDEADFYCQVWDSTTNHQVFGGGTRLSVL
B11: BD55-6713 (protein)
chain 1: QVQLVQSGAEVKKPGSSVKVSCKASGGTFSRYAISWVRQAPGQGLEWLGGIIPTFATTNYAQKFQGRVTITADESASTAYMELSSLRSGDTAVYYCARTIILQYYDYNGYHYPFDLWGQGTLVTVSS
chain 2: EIVLTQSPGTLSLSPGERATLSCRASQSVSSNYLAWYQQKPGQAPSLLIYDTSSRATGIPDRFSGSGSGTDFTLTISRLEPEDFAVYYCQHYGSSPGTFGQGTKLEIK
B12: BD55-6688 (protein)
chain 1: QVQLVQSGAEVKKPGASVKVSCKASGDTFSSYDINWVRQATGQGLEWMGWMNPKSGNTGYAQKFQGRVTMTRNTSISTVYMELSSLRSEDTAVYYCARERSELFYYLAVDVWGQGTPVTVSS
chain 2: DIQMTQSPSSLSASVGDRVTITCRASQSINIYLHWYQQKPGNAPKLLIYAASSLQGGVPSRFSGSGSGTDFTLTISSLQPEDFATYYCQQSYTTLRTFGGGTKVEIK

What follows are binders tested against SARS-CoV-2 Omicron BA.1 spike pseudovirus (assay: pseudovirus neutralization IC50; higher = weaker neutralization).
Procedure: (§1)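 Single-round VSV luciferase pseudovirus mixed with antibody dilutions for 1 h and put on Huh-7 cells for about a day; IC50 from the dose curve.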

Row | Binder | pseudovirus neutralization IC50 [µg/mL]
1 | B1 | > 10
2 | B2 | > 10
3 | B3 | > 10
4 | B4 | > 10
5 | B5 | > 10
6 | B6 | > 10
7 | B7 | > 10
8 | B8 | > 10
9 | B9 | > 10
10 | B10 | > 10
11 | B11 | > 10
12 | B12 | > 10

What follows are binders tested against SARS-CoV-2 Omicron BA.2 spike pseudovirus in the same assay as above.
Procedure: as §1

Row | Binder | pseudovirus neutralization IC50 [µg/mL]
13 | B1 | > 10
14 | B2 | > 10
15 | B3 | > 10
16 | B4 | > 10
17 | B5 | > 10
18 | B6 | > 10
19 | B7 | > 10
20 | B8 | > 10
21 | B9 | > 10
22 | B10 | > 10
23 | B11 | > 10
24 | B12 | > 10

These binders were tested against SARS-CoV-2 Omicron BA.2.75 spike pseudovirus in the same assay as above.
Procedure: as §1

Row | Binder | pseudovirus neutralization IC50 [µg/mL]
25 | B1 | > 10
26 | B2 | > 10
27 | B3 | > 10
28 | B4 | > 10
29 | B5 | > 10
30 | B6 | > 10
31 | B7 | > 10
32 | B8 | > 10
33 | B9 | > 10
34 | B10 | > 10
35 | B11 | > 10
36 | B12 | > 10

Each binder was assayed against SARS-CoV-2 Omicron BA.5 spike pseudovirus in the same assay as above.
Procedure: as §1

Row | Binder | pseudovirus neutralization IC50 [µg/mL]
37 | B1 | > 10
38 | B2 | > 10
39 | B3 | > 10
40 | B4 | > 10
41 | B5 | > 10
42 | B6 | > 10
43 | B7 | > 10
44 | B8 | > 10
45 | B9 | > 10
46 | B10 | > 10
47 | B11 | > 10
48 | B12 | > 10

What follows are binders tested against SARS-CoV-2 Omicron BQ.1.1 spike pseudovirus in the same assay as above.
Procedure: as §1

Row | Binder | pseudovirus neutralization IC50 [µg/mL]
49 | B1 | > 10
50 | B2 | > 10
51 | B3 | > 10
52 | B4 | > 10
53 | B5 | > 10
54 | B6 | > 10
55 | B7 | > 10
56 | B8 | > 10
57 | B9 | > 10
58 | B10 | > 10
59 | B11 | > 10
60 | B12 | > 10

What follows are binders tested against SARS-CoV-2 Omicron XBB spike pseudovirus in the same assay as above.
Procedure: as §1

Row | Binder | pseudovirus neutralization IC50 [µg/mL]
61 | B1 | > 10
62 | B2 | > 10
63 | B3 | > 10
64 | B4 | > 10
65 | B5 | > 10
66 | B6 | > 10
67 | B7 | > 10
68 | B8 | > 10
69 | B9 | > 10
70 | B10 | > 10
71 | B11 | > 10
72 | B12 | > 10

The binders below were run against SARS-CoV-2 early D614G spike pseudovirus in the same assay as above.
Procedure: as §1

Row | Binder | pseudovirus neutralization IC50 [µg/mL]
73 | B1 | > 10
74 | B2 | > 10
75 | B3 | > 10
76 | B4 | > 10
77 | B5 | > 10
78 | B6 | > 10
79 | B7 | > 10
80 | B8 | > 10
81 | B9 | > 10
82 | B10 | > 10
83 | B11 | > 10
84 | B12 | > 10
